Results of unrelated studies side by side (data: NIAID ChemDB).

Common to all: growth or infection tests; organism: HIV-1; read by: p24 / ELISA; endpoint: EC50

Blank or dashed fields: not listed here. Conditions beyond the fields shown may differ between rows. Two numbers with a dash give a range or band. ECn is the concentration giving n% inhibition of infection, replication or growth.

structure	cell line	conditions	strain	value
C=C(C)[C@@H]1CC[C@]2(NCCN3CCN(C(=O)c4ccccc4)CC3)CC[C@]3(C)[C@H](CC[C@@H]4[C@@]5(C)CC[C@H](OC(=O)[C@H]6C[C@@H](C(=O)O)C6(C)C)C(C)(C)[C@@H]5CC[C@]43C)[C@@H]12	MT-2		92HT599	≤0.01 µM
COC(=O)c1c(C(=O)OC)c(C)n(-c2ccccc2)c1C	PBL		IIIB	>10 µM
CCN(c1cccc2cccnc12)S(=O)(=O)c1ccc(F)cc1F	H9	pseudotyped	NL4-3	0.27 µM
C=C(C)[C@@H]1CC[C@]2(NCCN3CCN(C(=O)N(C)C)CC3)CC[C@]3(C)[C@H](CC[C@@H]4[C@@]5(C)CC[C@H](OC(=O)[C@H]6C[C@@H](C(=O)O)C6(C)C)C(C)(C)[C@@H]5CC[C@]43C)[C@@H]12	MT-2		92HT599	≤0.01 µM
Cc1cn([C@H]2C[C@H](N=[N+]=[N-])[C@@H](CO)O2)c(=O)[nH]c1=O	H9		IIIB	0.045 µM
CN[C@@H]1[C@H](O[C@@H]2OC[C@@H](O)[C@H](O)[C@H]2O)[C@@H](O)[C@H](O[C@H]2c3cc(C)c(C(=O)N[C@H](C)C(=O)O)c(O)c3-c3c(cc4c(c3O)C(=O)c3cc(OC)cc(O)c3C4=O)[C@@H]2O)O[C@@H]1C	PBMC		Clade B US2 (R5-tropic)	2.7 µM
COc1ccc2[nH]c3ccccc3c(=O)c2c1OC	OM-10.1		IIIB	>32 µg/mL
COCC(=O)OC[C@@H]1C=C[C@H](n2cc(C)c(=O)[nH]c2=O)O1	CEM-F + CEM		LAV	0.4 µg/mL
COc1ncc(OC)c2c(C(=O)C(=O)N3CCN(C(=O)c4ccccc4)CC3)c[nH]c12	PM1		SF162.LS	0.0047 µM
CC(C)C1=C(C(=O)OCC2CCCCC2)C(c2cccc(O)c2)NC(=O)N1	CEM			>5 µM
COc1ccc2c(c1OC)c(=O)c1ccccc1n2C	OM-10.1		IIIB	>28 µg/mL
CC(C)C1=C2C(CC[C@]3(C)[C@@H]2CC[C@@H]2[C@@]4(C)CC[C@H](OC(=O)[C@H]5C[C@@H](C(=O)O)C5(C)C)C(C)(C)[C@@H]4CC[C@]23C)[C@H](NC(=O)C(C)(C)C(=O)NC2CC2)C1=O	MT-2		92HT599	<0.01 µM
CCn1c(C)c(C(=O)O)c(C(=O)O)c1Cc1ccccc1	PBL		IIIB	>10 µM
C=C(C)[C@@H]1CC[C@]2(C(=O)OCC(=O)c3ccccc3)CC[C@]3(C)[C@H](CC[C@@H]4[C@@]5(C)CC[C@H](NC(=O)CC(C)(C)CC(=O)O)C(C)(C)[C@@H]5CC[C@]43C)[C@@H]12	H9		IIIB	4.77 µM
CC1(C)Oc2ccc3ccc(=O)oc3c2[C@H](OC(=O)C23CCC(C)(C(=O)O2)C3(C)C)[C@H]1OC(=O)C12CCC(C)(C(=O)O1)C2(C)C	H9		IIIB	>6.4 µM
CC(C)C1=C2[C@H]3CC[C@@H]4[C@@]5(C)CC[C@H](OC(=O)[C@H]6C[C@@H](C(=O)O)C6(C)C)C(C)(C)[C@@H]5CC[C@@]4(C)[C@]3(C)CC[C@@]2(NC(=O)C(C)(C)NC(=O)c2ccc(Cl)cc2OCCN2CCS(=O)(=O)CC2)CC1=O	MT-2		92HT599	<0.003 µM
Cc1ccc(S(=O)(=O)Nc2cccc3cccnc23)cc1	H9	pseudotyped	NL4-3	>50 µM
COc1cc(N=Nc2cc(S(=O)(=O)O)cc3cc(S(=O)(=O)O)cc(O)c23)c(C)cc1NC(=O)Nc1cc(C)c(N=Nc2cc(S(=O)(=O)O)cc3cc(S(=O)(=O)O)cc(O)c23)cc1OC	PBL		LAV-BR	<50 µM
CCSC(=O)C1=C(CC)NC(=O)NC1c1cccc(O)c1	CEM			>5 µM
O=c1c(-c2nnc(SCc3ccc(F)cc3)o2)c[nH]c2c(-c3ccccc3)cccc12	HeLa		NL4-3	53 µM
CC1(C)CC[C@]2(C(=O)O)CC[C@]3(C)C(=CC[C@@H]4[C@@]5(C)CC[C@H](O)C(C)(C)[C@@H]5CC[C@]43C)[C@@H]2C1	H9		IIIB	3.7 µM
CC(C)C1=C2C(CC[C@]3(C)[C@@H]2CC[C@@H]2[C@@]4(C)CC[C@H](OC(=O)[C@H]5C[C@@H](C(=O)O)C5(C)C)C(C)(C)[C@@H]4CC[C@]23C)[C@H](NC(=O)C(C)(C)C(=O)N2CCOCC2)C1=O	MT-2		92HT599	<0.01 µM
C[C@H]1[C@H](C)CC[C@]2(C(=O)O)CC[C@]3(C)C(=CC[C@@H]4[C@@]5(C)CC[C@H](OC(=O)CC(C)(C)C(=O)O)C(C)(C)[C@@H]5CC[C@]43C)[C@H]12	H9		IIIB	2.1 µM
Cc1cc(/C=C/C#N)cc(C)c1Oc1ccc(N)c(Nc2ccc(C#N)cc2)n1	MT-2		IIIB	0.014 µM
Cn1c2ccccc2c(=O)c2c(O)cccc21	MOLT-4/IIIB + MOLT-4		IIIB	>2.1 µg/mL
Cc1cn([C@H]2C[C@H](N=[N+]=[N-])[C@@H](CO)O2)c(=O)[nH]c1=O	H9		IIIB	0.045 µM
CCC1=C(C(=O)OCC2CCCCC2)C(c2cc(F)cc(F)c2)NC(=O)N1	CEM			>5 µM
C=C(C)[C@@H]1CC[C@]2(C(=O)O)CC[C@]3(C)[C@H](CC[C@@H]4[C@@]5(C)CC[C@H](OC(=O)CC(C)(C)C(=O)O)C(C)(C)[C@@H]5CC[C@]43C)[C@@H]12	H9		IIIB	<0.00035 µM
Cc1cn([C@H]2C=C[C@@H](CO)O2)c(=O)[nH]c1=S	CEM-F + CEM		LAV	>10 µg/mL
CC(C)C1=C2C(CC[C@]3(C)[C@@H]2CC[C@@H]2[C@@]4(C)CC[C@H](OC(=O)[C@H]5C[C@@H](C(=O)O)C5(C)C)C(C)(C)[C@@H]4CC[C@]23C)[C@H](NC(=O)C(C)(C)C(=O)N2CCN(C)CC2)C1=O	MT-2		92HT599	<0.01 µM
C=C(C)[C@@H]1CC[C@]2(C(=O)O)CC[C@]3(C)[C@H](CC[C@@H]4[C@@]5(C)CC[C@H](NC(=O)COCC(=O)O)C(C)(C)[C@@H]5CC[C@]43C)[C@@H]12	H9		IIIB	>7.9 µM
C[C@H](Cn1cnc2c(N)ncnc21)OCP(=O)(O)O	C8166		IIIB	0.21 µg/mL
CC1([C@@H]2CC[C@]3(NCCN4CCC(F)(F)CC4)CC[C@]4(C)[C@H](CC[C@@H]5[C@@]6(C)CC[C@H](OC(=O)[C@H]7C[C@@H](C(=O)O)C7(C)C)C(C)(C)[C@@H]6CC[C@]54C)[C@@H]23)CC1	MT-2		92HT599	>0.01 µM
Cc1ccccc1CSc1nnc(-c2c[nH]c3c(-c4ccccc4)cccc3c2=O)o1	HeLa		NL4-3	60 µM
Cc1cn([C@H]2C=C[C@@H](COC(=O)OC3CCCCC3)O2)c(=O)[nH]c1=O	CEM-F + CEM		LAV	0.6 µg/mL
C[C@H]1[C@H](C)CC[C@]2(C(=O)O)CC[C@]3(C)C(=CC[C@@H]4[C@@]5(C)CC[C@H](OC(=O)CCC(=O)O)C(C)(C)[C@@H]5CC[C@]43C)[C@H]12	H9		IIIB	15.3 µM
[2H]C(CNC(=O)c1ccc(Cl)cc1)NC(=O)C[C@@]12CC[C@]3(C)[C@H](CC[C@@H]4[C@@]5(C)CC[C@H](OC(=O)[C@H]6C[C@@H](C(=O)O)C6(C)C)C(C)(C)[C@@H]5CC[C@]43C)C1=C(C(C)C)C(=O)C2	MT-2		92HT599	<1 µM
C[C@H]1[C@H](C)CC[C@]2(C(=O)O)CC[C@]3(C)C(=CC[C@@H]4[C@@]5(C)CC[C@H](OC(=O)CC(C)(C)C(=O)O)C(C)(C)[C@@H]5CC[C@]43C)[C@H]12	H9		IIIB	2.1 µM
CCn1c(C)c(C(=O)OC)c(C(=O)OC)c1CC(C)C	PBL		IIIB	>10 µM
CCC1=C(Cc2ccccc2)C(c2cccc(O)c2)NC(=O)N1	CEM			>5 µM
COC(=O)c1cn2c(c1C(=O)OC)Cc1ccccc1C2	PBL		IIIB	>10 µM
CC(C)C1=C2[C@H]3CC[C@@H]4[C@@]5(C)CC[C@H](OC(=O)[C@H]6C[C@@H](C(=O)O)C6(C)C)C(C)(C)[C@@H]5CC[C@@]4(C)[C@]3(C)CC[C@@]2([C@@H](O)CNCC2(NC(=O)c3ccc(Cl)cc3)COC2)CC1=O	MT-2		92HT599	<1 µM
O=C(Nc1cccc2cccnc12)c1ccc(F)cc1F	H9	pseudotyped	NL4-3	>50 µM
Cc1nc2ccc(C(=O)NC(C)(C)C(=O)N[C@@]34CC[C@]5(C)[C@H](CC[C@@H]6[C@@]7(C)CC[C@H](OC(=O)[C@H]8C[C@@H](C(=O)O)C8(C)C)C(C)(C)[C@@H]7CC[C@]65C)C3=C(C(C)C)C(=O)C4)cc2[nH]1	MT-2		92HT599	0.003–0.01 µM
CC1([C@@H]2CC[C@]3(NCCN4CCN(S(=O)(=O)Cc5ccccc5)CC4)CC[C@]4(C)[C@H](CC[C@@H]5[C@@]6(C)CC[C@H](OC(=O)[C@H]7C[C@@H](C(=O)O)C7(C)C)C(C)(C)[C@@H]6CC[C@]54C)[C@@H]23)CC1	MT-2		92HT599	≤0.01 µM
COC(=O)c1c(C(=O)OC)c(-c2ccccc2)n(-c2ccccc2)c1C	PBL		IIIB	>10 µM
O=S(=O)(c1cccc2cnccc12)N1CCNCC1	U-937		IIIB	>10.5 µg/mL
CC(C)C1=C2[C@H]3CC[C@@H]4[C@@]5(C)CC[C@H](OC(=O)[C@H]6C[C@@H](C(=O)O)C6(C)C)C(C)(C)[C@@H]5CC[C@@]4(C)[C@]3(C)CC[C@@]2(NC(=O)C(C)(C)NC(=O)c2ccc(Cl)cc2OCCN2CCCCC2)CC1=O	MT-2		92HT599	<0.003 µM
CC(=O)N1CCC(C(=O)N(CCCN2CCC(Cc3ccc(C(N)=O)cc3)CC2)c2ccc(C)c(Cl)c2)CC1	HEK 293			0.00074 µM
COc1ccc(/C=C/c2cc(Cl)c3cc(Cl)ccc3n2)c(OC)c1	PBMC		VB51	1.11 µM
Cc1cn([C@H]2C=C[C@@H](CO)O2)c(=O)[nH]c1=O	CEM-F + CEM		LAV	0.1 µg/mL
CCC1=C(C(=O)OCC2CCCCC2)C(c2ccc(NC(C)=O)cc2)NC(=O)N1	CEM			≤1 µM
CCn1c(C)c(C(=O)OC)c(C(=O)OC)c1Cc1ccccc1	PBL		IIIB	2.3 µM
CCOC(=O)c1ccc(C2NC(=O)NC(CC)=C2C(=O)OCC2CCCCC2)cc1	CEM			>5 µM
Cc1cn([C@H]2C[C@H](N=[N+]=[N-])[C@@H](CO)O2)c(=O)[nH]c1=O	MT-4		89.6	0.00122 µM
CC1([C@@H]2CC[C@]3(NCCN4CCS(=O)(=O)CC4)CC[C@]4(C)[C@H](CC[C@@H]5[C@@]6(C)CC[C@H](OC(=O)[C@H]7C[C@@H](C(=O)O)C7(C)C)C(C)(C)[C@@H]6CC[C@]54C)[C@@H]23)CC1	MT-2		92HT599	≤0.01 µM
Cc1cc(C#CC(C)(C)O)cc(C)c1Oc1ccc([N+](=O)[O-])c(Nc2ccc(C#N)cc2)n1	MT-2	10% FBS	IIIB	8.91 µM
CCC1=C(C(=O)CC2CCC(OC)CC2)C(c2ccc(O)c(Cl)c2)NC(=O)N1	CEM			>5 µM
CCOC(=O)c1c(C(=O)c2ccccc2F)c(C)n(C)c1C	PBL		IIIB	>10 µM
CC1(C)CC[C@]2(C(=O)O)CC[C@]3(C)C(=CC[C@@H]4[C@@]5(C)CC[C@H](OC(=O)CC(C)(C)C(=O)O)C(C)(C)[C@@H]5CC[C@]43C)[C@@H]2C1	H9		IIIB	0.00086 µM
Cc1cn([C@H]2C[C@H](N=[N+]=[N-])[C@@H](CO)O2)c(=O)[nH]c1=O	PBMC		BaL	0.077 µM
CCCCn1c(C)c(C(=O)OC)c(C(=O)OC)c1Cc1ccccc1	PBL		IIIB	>1 µM
CCC1=C(C(=O)OCC2CCCCC2)C(c2ccc(C(=O)OC)cc2)NC(=O)N1	CEM			≤1 µM